Anti-infective test results gathered from many reports (values: NIAID ChemDB through PubChem).

Shared fields: whole-cell or culture tests; agent: Rhinovirus; measure: inhibition

Inhibition is in % at the dose shown (toxicity tests: loss of growth or viability). Blank or dashed fields: not listed here. Lines come from different laboratories, so protocols vary. Two numbers with a dash give a range or band.

| compound | strain or isolate | cells | read by | dose | value |
|---|---|---|---|---|---|
| CN(C)c1ccc(Cn2cnc3c(N(C)C)nc(C(F)(F)F)nc32)cc1 | Serotype 14 | M-HELA | plaque count | 8 µM | 46% |
| CCOC(=O)c1csc(N2CCN(Cc3cc(C)ccc3C)CC2)n1 | 17 serotypes | - | - | 5 µg/mL | 53% |
| Cc1cc(-c2ccc(N=Nc3c(N)c(S(=O)(=O)O)cc4cc(S(=O)(=O)O)ccc34)c(C)c2)ccc1N=Nc1c(N)ccc2cc(S(=O)(=O)O)ccc12 | - | Human amnion AV3 cells | cytopathic effect | 5 µg/mL | 0% |
| Cc1ccccc1Cn1cnc2c(N(C)C)nc(C(F)(F)F)nc21 | Serotype 14 | M-HELA | plaque count | 8 µM | 31% |
| O=S(=O)([O-])c1ccc2c(S(=O)(=O)[O-])cc(S(=O)(=O)[O-])cc2c1 | - | Human amnion AV3 cells | cytopathic effect | 5 µg/mL | 5% |
| CC1(C)COC(c2ccc(OCCN3CCN(c4ccc(Cl)nn4)CC3)cc2)=N1 | 100 serotypes | - | - | 32 µg/mL | 71% |
| Nc1c(S(=O)(=O)[O-])cc2cc(S(=O)(=O)[O-])ccc2c1O | - | Human amnion AV3 cells | cytopathic effect | 10 µg/mL | 0% |
| O=C(O)Cc1csc(/N=C2\SC[C@@H]3Cc4ccccc4CN23)n1 | Serotype 6 | MRC-5 | cytopathic effect | 7 µg/mL | 80–100% |
| Nc1ccc(S(=O)(=O)[O-])c2c(S(=O)(=O)[O-])ccc(O)c12 | - | Human embryonic lung cells | cytopathic effect | 5 µg/mL | 60% |
| Cc1cc(Cl)ccc1Cn1cnc2c(N(C)C)nc(C(F)(F)F)nc21 | Serotype 3 | M-HELA | plaque count | 8 µM | 29% |
| CCOc1cc(O)c(C(=O)/C=C/c2ccc(OC)cc2)c(OC)c1 | 100 serotypes | - | - | 0.4 µg/mL | 71% |
| O=C(Nc1cc(S(=O)(=O)[O-])cc2cc(S(=O)(=O)[O-])ccc12)c1ccccc1 | - | Human embryonic lung cells | cytopathic effect | 10 µg/mL | 10% |
| Cc1ccc(N2CCC(c3cccc(C(F)(F)F)c3)C2)nn1 | 100 serotypes | - | - | 0.016 µg/mL | 18% |
| CN(C)c1nc(C(F)(F)F)nc2c1ncn2Cc1ccc(Cl)c(N)c1 | Serotype 19 | M-HELA | plaque count | 8 µM | 40% |
| O=S(=O)([O-])c1cc(O)c2ccccc2c1 | - | Human embryonic lung cells | cytopathic effect | 10 µg/mL | 44% |
| CN(C)c1nc(C(F)(F)F)nc2c1ncn2Cc1ccc(Cl)c(NC=O)c1 | Serotype 3 | M-HELA | plaque count | 8 µM | 40% |
| Cc1cccc(C2=CCN(c3ccc(Br)nn3)CC2)c1 | 17 serotypes | - | - | 1.126 µg/mL | 71% |
| Cc1ccc(Cn2cnc3c(N(C)C)nc(C(F)(F)F)nc32)cc1 | Serotype 16 | M-HELA | plaque count | 5 µM | 12% |
| Nc1cccc(S(=O)(=O)O)c1 | - | Human embryonic lung cells | cytopathic effect | 50 µg/mL | 0% |
| CN(C)c1nc(C(F)(F)F)nc2c1ncn2Cc1ccc(Br)cc1 | Serotype 19 | M-HELA | plaque count | 8 µM | 27% |
| N#Cc1cc([N+](=O)[O-])ccc1Oc1ccc(Cl)c(Cl)c1 | HANK | VERO | plaque count | 0.125 µg/mL | 57.9% |

A second listing of 3 rows from above:

compound | strain or isolate | cells | read by | dose | value
O=S(=O)([O-])c1cc(O)c2ccccc2c1 | - | Human embryonic lung cells | cytopathic effect | 10 µg/mL | 44%
CN(C)c1nc(C(F)(F)F)nc2c1ncn2Cc1ccc(Br)cc1 | Serotype 19 | M-HELA | plaque count | 8 µM | 27%
Nc1cccc(S(=O)(=O)O)c1 | - | Human embryonic lung cells | cytopathic effect | 50 µg/mL | 0%